Consider 12 proteins from patent publication US7569660 (UNIVERSITY OF CHICAGO, dated 2009).

Substitutions are numbered along the chain they refer to. Numbers in names are those of the source.

The chains are these.
B1: NM^L238C (other)
chain: MSDSNQGNNQQNYQQYSQNGNQQQGNNRYQGYQAYNAQAQPAGGYYQNYQGYSGYQQGGYQQYNPDAGYQQQYNPQGGYQQYNPQGGYQQQFNPQGGRGNYKNFNYNNNLQGYQAGFQPQSQGMSLNDFQKQQKQAAPKPKKTLKLVSSSGIKLANATKKVGTKPAESDKKEEEKSAETKEPTKEPTKVEEPVKKEEKPVQTEEKTEEKSELPKVEDLKISESTHNTNNANVTSADACIKEQEEEVDDEVVND
B2: NM^P138C (other)
chain: B1 chain with P138C, C238L
B3: NM^E203C (other)
chain: B1 chain with E203C, C238L
B4: NM^S2C (other)
chain: B1 chain with S2C, C238L
B5: NM^L144C (other)
chain: B1 chain with L144C, C238L
B6: NM^Q38C (other)
chain: B1 chain with Q38C, C238L
B7: NM^S234C (other)
chain: B1 chain with S234C, C238L
B8: NM^G43C (other)
chain: B1 chain with G43C, C238L
B9: NM^T158C (other)
chain: B1 chain with T158C, C238L
B10: NM^E167C (other)
chain: B1 chain with E167C, C238L
B11: NM^G68C (other)
chain: B1 chain with G68C, C238L
B12: NM^K184C (other)
chain: B1 chain with K184C, C238L
notes: also called K184C fibers

One data set deals with the molecule itself. Nature of the data set: fiber assembly (self-association) followed by CongoRed binding; no detectable fibers by EM.
As for B1, the binding result is reported as “no binding”.

Another data set concerns the molecule itself. Kind of data set: fiber assembly (self-association) followed by CongoRed binding.
Regarding B2, the binding result was “binds”.

In the case of B3, the binding result is on record as “binds”.

B4: the binding result is “binds”.

For B5, the binding result is “binds”.

Regarding B6, the binding result is on record as “binds”.

B7: the binding result is listed as “binds”.

In the case of B8, the binding result was “binds”.

Turning to B9, the binding result was “binds”.

Turning to B10, the binding result is recorded as “binds”.

Turning to B11, the binding result was “binds”.

Regarding B12, the binding result is “binds”.
